PubChem BioAssay AID504761 – Drosophila RNAi Screening Center, 2011

- Purpose: 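Genome-wide fly cell screen for genes dengue virus requires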 (primary screen)
- Cells: D.Mel-2 cells from Drosophila
- Reagent: long dsRNA against Drosophila genes
- Challenge: infection with dengue virus type 2; dose and infection time not stated
- Measured: 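Cells stained for dengue envelope protein and imaged; percent of infected cells per well on duplicate plates, ranked by infection, with stained nuclei counted for cell number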
- Scale: infection score: higher = more virus-infected cells; cell count: higher = more cells in the well
- Active means: 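Low infection ranks in the two replicates (chance level up to 0.065) followed by a retest with a 1.5-fold or larger significant decrease, p below 0.05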
- Meaning of the calls: active = confirmed: knock-down lowers infection; inactive = not picked or not confirmed
The screen tested about 22,000 reagents; this is an unselected part of those that have a named target and a result. In the full data, 116 (0.52%) were called active. 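Calls depend on retest data that are not deposited; infection was ranked per plate without normalising between plates; the unit of the infection score is not given.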 The raw values are shown without normalisation. Unmarked entries are inactive. A plus sign joins genes that one reagent is predicted to hit. Not given: the amount of reagent, the time to read-out.

| infection score, replicate 1 | infection score, replicate 2 | cell count, replicate 1 | cell count, replicate 2 | gene | dsRNA |
| --- | --- | --- | --- | --- | --- |
| 0.42 | 1.18 | 5913 | 3225 | CG42496 + Ppcdc | DRSC03886 |
| 29.5 | 5.55 | 5653 | 6220 | chn | DRSC06086 |
| 20.3 | 12.2 | 5228 | 3959 | chn | DRSC29342 |
| 6.71 | 3.28 | 6651 | 6198 | en | DRSC07609 |
| 1.5 | 2.15 | 6085 | 5570 | en | DRSC25628 |
| 1.03 | 1.8 | 6436 | 6014 | CG12436 (retired record) + CG42514 | DRSC26599 |
| – | 12 | 382 | 2725 | CG7518 | DRSC16253 |
| 28.2 | – | 4013 | 226 | CG7518 | DRSC29146 |
| 4.26 | 6.34 | 5655 | 5802 | Daxx | DRSC03255 |
| – | – | 388 | 371 | Daxx | DRSC29680 |
| 13.4 | 5.2 | 6121 | 6386 | MCTS1 | DRSC18393 |
| 0.58 | 0.51 | 514 | 391 | CR11700 (retired record) | DRSC17794 |
| 2.34 | 1.72 | 5564 | 5587 | CR11700 (retired record) | DRSC23384 |
| 0.64 | 5.42 | 5612 | 6734 | THG | DRSC01896 |
| 1.46 | 1.58 | 5803 | 5769 | Takl1 | DRSC13443 |
| 6.22 | 7.98 | 6299 | 1304 | Takl1 | DRSC28251 |
| 9.86 | 9.87 | 6117 | 6242 | Amph | DRSC07578 |
| 11.8 | 32 | 5532 | 4925 | tomb + Cap-D3 | DRSC27851 |
| 4.78 | 22.2 | 6636 | 3401 | CG5516 | DRSC15826 |
| 3.39 | 5.43 | 6425 | 6445 | CG5516 | DRSC21753 |
| 6.21 | 13.8 | 6549 | 6194 | CG5516 | DRSC27984 |
| 5.61 | 23.5 | 2743 | 4500 | CG6294 + CG6299 | DRSC19980 |
| 37.9 | 11.3 | 5182 | 6278 | CG6294 + CG6299 | DRSC27443 |

2 of these entries in another layout:
infection score, replicate 1	infection score, replicate 2	cell count, replicate 1	cell count, replicate 2	gene	dsRNA
		388	371	Daxx	DRSC29680
13.4	5.2	6121	6386	MCTS1	DRSC18393
